Test results taken from paper PMC2765250 (Vaccine, 2009).

Biological target: purified rhesus macaque MHC class I molecule Mamu-B*17 with human beta2-microglobulin (rhesus macaque | human)
Assay: radioligand binding

Binder | IC50
KTSTLIFFV [VACV-WR peptide 75NP (KTSTLIFFV), ORF H2R] | 13.3 µM
QTIVFIWFI [VACV-WR peptide 9NP (QTIVFIWFI), ORF A14.5L] | 15.5 µM
